Results of unrelated studies side by side (data: NIAID ChemDB).

All rows: whole-cell or culture tests; species: Mycobacterium tuberculosis

An empty or dashed field is not shown. MIC bound comes from a single tested concentration. Inhibition is in % at the dose shown (toxicity tests: loss of growth or viability). Conditions beyond the fields shown may differ between rows. ECn: concentration that inhibits the pathogen or its effect by n%. MIC50, MIC90 and the like: level of inhibition, or share of isolates inhibited.

structure	strain or isolate	mutations	cells	method	read-out	tested at	value
C=C(C)[C@@H]1CC[C@]2(C(=O)O)CC[C@]3(C)C(CCC4[C@@]5(C)CC[C@H](OC(=O)/C=C/c6ccc(OC(C)=O)c(OC)c6)C(C)(C)C5CC[C@]43C)C12	H37Ra			resazurin	MIC		200 µg/mL
NNC(=O)c1ccncc1	Strain 23				MIC		0.06 µg/mL
CCOC(=O)c1ccc2c(c1)nc(-c1ccc([N+](=O)[O-])cc1)n2CCN1CCCC1=O	H37Rv			resazurin / fluorescence	EC90		>100 µM
COc1c(OC(C)=O)cc2oc3cc(OC(C)=O)c(CCC(C)C)c(O)c3c(=O)c2c1CCC(C)C	H37Ra			resazurin	MIC		3.12 µg/mL
COc1cc(/C=C/C(=O)O[C@H]2CC[C@@]3(C)C(CC[C@]4(C)C3CC=C3C5[C@@H](C)[C@H](C)CC[C@]5(C(=O)O)CC[C@]34C)C2(C)C)ccc1O	H37Ra			resazurin	MIC		3.13 µg/mL
CN[C@@H]1[C@H](O[C@H]2[C@H](O[C@H]3[C@H](O)[C@@H](O)[C@H](N=C(N)N)[C@@H](O)[C@@H]3N=C(N)N)O[C@@H](C)[C@]2(O)C=O)O[C@@H](CO)[C@H](O)[C@H]1O	TB376	Spiroindene-resistant		turbidity	MIC		1 µM
CCOC(=O)c1ccc2c(c1)nc(-c1ccc(C(F)(F)F)cc1)n2CCN1CCCC1=O	H37Rv			resazurin / fluorescence	EC50		>100 µM
Cc1ccc(N=Nc2c(O)c3cccc(Cl)c3[nH]c2=O)cc1	H37Rv			resazurin	inhibition	6.25 µg/mL	34%
Cc1ccc(-c2noc(C3=CC4(CCN(CC5CCCO5)CC4)c4ccccc43)n2)cn1	TB333	Spiroindene-resistant		turbidity	MIC		12.5 µM
NC[C@H]1O[C@H](O[C@H]2[C@H](O)[C@@H](O[C@H]3O[C@H](CO)[C@@H](O)[C@H](N)[C@H]3O)[C@H](N)C[C@@H]2N)[C@H](O)[C@@H](O)[C@@H]1O	H37Ra			resazurin	MIC		2.5 µg/mL
O=[N+]([O-])c1ccc2oc([N+](=O)[O-])cc2c1	H37Rv			resazurin	MIC bound		<6.25 µg/mL
O=C1CCc2cc(N3CCN(C(=O)c4cccc(Cl)c4)CC3)ccc21	BioA overexpression strain			turbidity	MIC90		49.1 µM
COc1ccc2nc(N/N=C(\C)c3ccccn3)cc(C)c2c1	H37Rv		VERO		MIC		6.25 µg/mL
CC(=O)c1ccc(N2CCN(C(=O)c3cccnc3)CC2)cc1	Wild type without biotin			turbidity	MIC50		>50 µM
CCOC(=O)Cc1cc(=O)oc2c(CN3CCN(c4ccc(C)cc4)CC3)c(O)ccc12	H37Rv			resazurin	inhibition	6.25 µg/mL	88%
O=[N+]([O-])c1cc(F)ccc1-n1cc(CS(=O)(=O)C2c3ccccc3-c3ccccc32)nn1	H37Rv			broth dilution	MIC99		>222 µM
CCOC(=O)c1ccc2c(c1)nc(-c1ccc(Cl)cc1)n2CCN1CCCC1=O	H37Rv			resazurin / fluorescence	EC50		>100 µM
Cc1noc(NS(=O)(=O)c2ccc(N=NC(C#N)C#N)cc2)c1C	H37Rv			BACTEC	inhibition	12.5 µg/mL	4%
O=c1[nH]c2cc(Cl)ccc2c(O)c1N=Nc1ccc(F)cc1	H37Rv			resazurin	MIC		<6.25 µg/mL
CCOP(=S)(Oc1cnn(C)c(=O)c1OC)OC(C)C	H37Rv			BACTEC	MIC bound		>12.5 µg/mL
Cc1ccncc1-c1noc(C2=CC3(CCN(CC4CCCO4)CC3)c3ccccc32)n1	H37Rv			resazurin	MIC		6.3 µM
COc1cc2oc3cc(OC(C)=O)c(CCC(C)C)c(O)c3c(=O)c2c(CCC(C)C)c1OC	H37Ra			resazurin	MIC		100 µg/mL
CC1=C(CCC(=O)O)c2cc3nc(cc4[nH]c(cc5[nH]c(cc1n2)c(C)c5C(C)O)c(C)c4C(C)O)C(C)=C3CCC(=O)O	H37Rv			BACTEC	MIC		≥12.8 µg/mL
CO[C@H]1/C=C/O[C@@]2(C)Oc3c(C)c(O)c4c(O)c(c5c(c4c3C2=O)NC2(CCN(CC(C)C)CC2)N=5)=NC(=O)/C(C)=C\C=C\[C@H](C)[C@H](O)[C@@H](C)[C@@H](O)[C@@H](C)[C@H](OC(C)=O)[C@@H]1C	H37Rv-pAV (Val516 mutation)				MIC		≤0.015 µg/mL
NNC(=O)c1ccncc1	Clinical isolate 12				MIC		5 µg/mL
COc1ccc(N=Nc2c(O)c3cc(Cl)ccc3[nH]c2=O)c(C)c1	H37Rv			resazurin	inhibition	6.25 µg/mL	12%
O=S(=O)(Cc1cn(-c2ccc(Cl)cc2)nn1)C1c2ccccc2-c2ccccc21	Specimen 192			broth dilution	MIC99		119 µM
Brc1ccc2[nH]c3nc(N/N=C/c4cccnc4)nnc3c2c1	H37Rv			resazurin	MIC bound		>6.25 µg/mL
CCC(=O)N1CCN(c2ccc(C(C)=O)cc2)CC1	Wild type without biotin			turbidity	MIC50		>50 µM
CCC/C(C)=N/NC(=S)SC	H37Rv			BACTEC	inhibition	12.5 µg/mL	99%
CCOc1cc2oc3cc(O)c(CCC(C)C)c(O)c3c(=O)c2c(CCC(C)C)c1C(C)=O	H37Ra			resazurin	MIC		1.56 µg/mL
CC1COc2c(N3CCN(C)CC3)c(F)cc3c(=O)c(C(=O)O)cn1c23	17003	Ethambutol-resistant		resazurin	MIC		0.14 µM
C=C(C)[C@@H]1CC[C@]2(C(=O)O)CC[C@]3(C)C(CCC4[C@@]5(C)CC[C@H](OC(=O)/C=C/c6ccc(OC(C)=O)c(OC(C)=O)c6)C(C)(C)C5CC[C@]43C)C12	H37Ra			resazurin	MIC		200 µg/mL
CCCOc1cc2oc3cc(O)c(CCC(C)C)c(O)c3c(=O)c2c(CCC(C)C)c1OC	M5	MDR		resazurin	MIC		3.12 µg/mL
Clc1cc(Cl)cc(-n2cc(CNC3c4ccccc4-c4ccccc43)nn2)c1	Specimen 192			broth dilution	MIC99		>246 µM
CN(C)CCNc1ccc2nnn3c4ccc(O)cc4c(=O)c1c23	H37Rv			BACTEC	MIC bound		≤12.5 µg/mL
CC(=O)NC[C@H]1CN(c2ccc(N3CCOCC3)c(F)c2)C(=O)O1	Strain 35				MIC		>16 µg/mL
COc1cc2oc3cc(O)c(CCC(C)C)c(O)c3c(=O)c2c(CCC(C)C)c1OC	M11			resazurin	MIC		3.12 µg/mL
CCOC(=O)c1ccc2c(c1)nc(-c1ccc3c(c1)OCO3)n2CCN1CCCOC1	H37Rv			resazurin / fluorescence	MIC		>100 µM
Fc1ccc(NC(=S)SCc2ccc(Cl)c(Cl)c2)cc1F	H37Rv			BACTEC	inhibition	128 µg/mL	100%
C=C(C)[C@@H]1CC[C@]2(C(=O)O)CC[C@]3(C)C(CCC4[C@@]5(C)CC[C@H](OC(=O)/C=C/c6ccc(O)cc6)C(C)(C)C5CC[C@]43C)C12	H37Ra			resazurin	MIC		6.25 µg/mL
CCOC(=O)c1ccc2c(c1)nc(-c1ccc(N3CCOCC3)cc1)n2CCN1CCCC1=O	H37Rv			resazurin / fluorescence	MIC		>100 µM
O=C(Nc1ccc(C2=NCCN2)cc1)c1ccc(C(=O)Nc2ccc(C3=NCCN3)cc2)c(Br)c1	H37Rv			BACTEC	MIC bound		<6.25 µg/mL
CC[C@@H](CO)NCCN[C@@H](CC)CO	H37Rv			resazurin / fluorescence	MIC		>100 µM
CO[C@H]1/C=C/O[C@@]2(C)Oc3c(C)c(O)c4c(O)c(c(/C=N/N5CCN(C6CCCC6)CC5)c(O)c4c3C2=O)NC(=O)/C(C)=C\C=C\[C@H](C)[C@H](O)[C@@H](C)[C@@H](O)[C@@H](C)[C@H](OC(C)=O)[C@@H]1C	13268				MIC		0.06 µg/mL
COC(=O)C1=CO[C@@H](OC2OC(CO)C(O)C(O)C2O)[C@@H]2[C@H](C)[C@@H](O)[C@@H](O)[C@]12O	H37Rv			BACTEC	MIC bound		>12.5 µg/mL
O=[N+]([O-])c1cc(F)ccc1-n1cc(CSC2c3ccccc3-c3ccccc32)nn1	Specimen 192			broth dilution	MIC99		>239 µM
O=c1[nH]c2c([N+](=O)[O-])cccc2c(O)c1N=Nc1ccc(Cl)c(Cl)c1	H37Rv			resazurin	inhibition	6.25 µg/mL	79%
CO[C@H]1/C=C/O[C@@]2(C)Oc3c(C)c(O)c4c(O)c(c(/C=N/N5CCN(C)CC5)c(O)c4c3C2=O)NC(=O)/C(C)=C\C=C\[C@H](C)[C@H](O)[C@@H](C)[C@@H](O)[C@@H](C)[C@H](OC(C)=O)[C@@H]1C	Clinical isolate 3				MIC		0.1 µg/mL
COC(=O)c1ccc(N2CCN(C(=O)c3cccc(Cl)c3)CC2)cc1	BioA underexpression strain			turbidity	MIC50		>50 µM
O=[N+]([O-])c1ccccc1-n1cc(CSC2c3ccccc3-c3ccccc32)nn1	Specimen 192			broth dilution	MIC99		>250 µM
O=C(N/N=C/c1ccco1)C(=O)N/N=C/c1ccco1	H37Rv			BACTEC	inhibition	12.5 µg/mL	-15%
O=c1[nH]c2ccccc2c(O)c1N=Nc1ccccc1	H37Rv			resazurin	inhibition	6.25 µg/mL	97%
CCC(=O)Oc1cc2oc3cc(OC(=O)CC)c(C(C)=O)c(CCC(C)C)c3c(=O)c2c(O)c1CCC(C)C	H37Ra			resazurin	MIC		1.56 µg/mL
COc1cc(OC)c2cc([N+](=O)[O-])c3ccc(=O)oc3c2c1	SIN452			resazurin	MIC		25 µg/mL
CCOC(=O)c1ccc2nc(-c3ccc(O)c(OC)c3)[nH]c2c1	H37Rv			resazurin / fluorescence	EC90		>100 µM
COc1c(OCCO)cc2oc3cc(O)c(CCC(C)C)c(O)c3c(=O)c2c1CCC(C)C	H37Ra			resazurin	MIC		1.56 µg/mL
NC[C@H]1O[C@H](O[C@H]2[C@H](O)[C@@H](O[C@H]3O[C@H](CO)[C@@H](O)[C@H](N)[C@H]3O)[C@H](N)C[C@@H]2N)[C@H](O)[C@@H](O)[C@@H]1O	H37Rv				MIC		1 µg/mL
COc1ccc2cc([N+](=O)[O-])c3ccc(=O)oc3c2c1	MTY147			resazurin	MIC		25 µg/mL
CCCCCCC(=O)OC[n+]1ccc2c(C)c3[nH]c4ccccc4c3c(C)c2c1	H37Rv			resazurin	MIC bound		<6.25 µg/mL
O=c1[nH]c2c(Cl)cccc2c(O)c1N=Nc1ccccc1Cl	H37Rv			resazurin	inhibition	6.25 µg/mL	7%
COc1c(O)cc2oc3cc(O)c(CC=C(C)C)c(O)c3c(=O)c2c1CC=C(C)C	H37Ra			resazurin	MIC		6.25 µg/mL
Nc1cc(Cl)cc2c1[nH]c(=O)c1ccccc12	H37Rv			BACTEC	inhibition	12.5 µg/mL	1%
COc1ccc(-c2noc(C3=CC4(CCN(CC5CCCO5)CC4)c4ccccc43)n2)cc1	19000	Rifampicin-resistant		resazurin	MIC		0.39 µM
CC(C)=CC[C@H](O)C1=CC(=O)c2c(O)ccc(O)c2C1=O	CS-R				MIC		6.4 µg/mL
C1=C(c2nc(-c3cccnc3)no2)c2ccccc2C12CCN(CC1CCCO1)CC2	TB377	Spiroindene-resistant		turbidity	MIC		15.5 µM
COc1ccc(-c2c([O-])oc(-c3ccccc3)[n+]2C)cc1	H37Rv			BACTEC	MIC bound		>12.5 µg/mL
Nc1ccc(C(=O)O)c(O)c1	Clinical isolate 10				MIC		0.5 µg/mL
Cc1ccc2c(=O)n(C)c(=O)n(C)c2n1	H37Rv			BACTEC	inhibition	12.5 µg/mL	-15%
C=CCOc1cc2oc3cc(O)c(CCC(C)C)c(O)c3c(=O)c2c(CCC(C)C)c1OC	M22			resazurin	MIC		3.12 µg/mL
Nc1cc(S(N)(=O)=O)ccc1SSc1ccc(S(N)(=O)=O)cc1N	H37Rv			BACTEC	inhibition	6.25 µg/mL	0%
C[C@@H]1CC[C@]2(C(=O)O)CC[C@]3(C)C(=CCC4[C@@]5(C)CC[C@H](OC(=O)/C=C/c6ccc(O)c(O)c6)C(C)(C)C5CC[C@]43C)C2[C@H]1C	H37Ra			resazurin	MIC		200 µg/mL
CCOC(=O)Nc1ccc2c(c1[N+](=O)[O-])c1cc([N+](=O)[O-])cc([N+](=O)[O-])c1n2CC	H37Rv			BACTEC	inhibition	12.5 µg/mL	73%
O=C1CCc2cc(N3CCN(C(=O)c4ccc5c(c4)OCO5)CC3)ccc21	BioA overexpression strain			turbidity	MIC90		26.8 µM

The last 6 rows once more:

{"structure": "Cc1ccc2c(=O)n(C)c(=O)n(C)c2n1", "strain or isolate": "H37Rv", "method": "BACTEC", "read-out": "inhibition", "tested at": "12.5 µg/mL", "value": "-15%"}
{"structure": "C=CCOc1cc2oc3cc(O)c(CCC(C)C)c(O)c3c(=O)c2c(CCC(C)C)c1OC", "strain or isolate": "M22", "method": "resazurin", "read-out": "MIC", "value": "3.12 µg/mL"}
{"structure": "Nc1cc(S(N)(=O)=O)ccc1SSc1ccc(S(N)(=O)=O)cc1N", "strain or isolate": "H37Rv", "method": "BACTEC", "read-out": "inhibition", "tested at": "6.25 µg/mL", "value": "0%"}
{"structure": "C[C@@H]1CC[C@]2(C(=O)O)CC[C@]3(C)C(=CCC4[C@@]5(C)CC[C@H](OC(=O)/C=C/c6ccc(O)c(O)c6)C(C)(C)C5CC[C@]43C)C2[C@H]1C", "strain or isolate": "H37Ra", "method": "resazurin", "read-out": "MIC", "value": "200 µg/mL"}
{"structure": "CCOC(=O)Nc1ccc2c(c1[N+](=O)[O-])c1cc([N+](=O)[O-])cc([N+](=O)[O-])c1n2CC", "strain or isolate": "H37Rv", "method": "BACTEC", "read-out": "inhibition", "tested at": "12.5 µg/mL", "value": "73%"}
{"structure": "O=C1CCc2cc(N3CCN(C(=O)c4ccc5c(c4)OCO5)CC3)ccc21", "strain or isolate": "BioA overexpression strain", "method": "turbidity", "read-out": "MIC90", "value": "26.8 µM"}